Results from US20240368664A1, “LIVE YEAST BIOSENSORS AND METHODS OF USE THEREOF” (priority 2021, published 2024).

Columns and labels:
[1] = tested on: CpSte2; assay: Native CpSte2 dose-response with Ebola sGP target peptide
[2] = tested on: mutant SsSte2; assay: Directed-evolution SsSte2 mutant hits, dose-response with nucleocapsid intermediate and epitope peptides, mCherry; assay type: cell-based, Scheffersomyces stipites; conditions: best hit after the second round of directed evolution

SMILES	fold less compared to the cognate peptide [1]	fold higher concentration needed to induce expression levels equivalent to the native peptide ([1]; FIG. 20B)	EC50 ([1]; FIG. 20C)	EC50 [2]	fold increase in signal intensity [2]
CC(C)[C@H](N)C(=O)N[C@@H](CC(N)=O)C(=O)N[C@@H](C)C(=O)N[C@H](C(=O)N[C@@H](CCC(=O)O)C(=O)N[C@@H](CC(=O)O)C(=O)N1CCC[C@H]1C(=O)N[C@@H](CO)C(=O)N[C@@H](CO)C(=O)NCC(=O)N[C@@H](Cc1ccc(O)cc1)C(=O)N[C@@H](Cc1ccc(O)cc1)C(=O)O)[C@@H](C)O	1000 fold	10 fold	86 µM		
CC(C)[C@H](NC(=O)CNC(=O)[C@H](Cc1ccc(O)cc1)NC(=O)[C@H](CCC(N)=O)NC(=O)[C@@H]1CCCN1C(=O)[C@H](Cc1c[nH]c2ccccc12)NC(=O)[C@H](Cc1c[nH]cn1)NC(=O)[C@@H](N)Cc1c[nH]c2ccccc12)C(=O)N[C@@H](Cc1ccccc1)C(=O)N[C@@H](C)C(=O)N1CCC[C@H]1C(=O)NCC(=O)O				3 µM	3.4±0.3 fold
